Experimental data taken from patent US4548925A, “Antibiotic M43A, pharmaceutical composition and method of use” (Eli Lilly and Company, priority 1984, dated 1985).

Test system: Staphylococcus aureus S13E
Conditions: agar dilution, M43A phosphate salt, vancomycin free base

## CN[C@H](CC(C)C)C(=O)N[C@H]1C(=O)N[C@@H](CC(N)=O)C(=O)N[C@H]2C(=O)N[C@H]3C(=O)N[C@H](C(=O)N[C@H](C(=O)O)c4cc(O)cc(O)c4-c4cc3ccc4O)[C@H](O)c3ccc(c(Cl)c3)Oc3cc2cc(c3O[C@@H]2O[C@H](CO)[C@@H](O)[C@H](O)[C@H]2O[C@H]2C[C@](C)(N)[C@H](O)[C@H](C)O2)Oc2ccc(cc2Cl)[C@H]1O [Vancomycin]
  MIC: 1 µg/mL
